In US11604145B2, “Method for ultra-high performance screening of biological objects” (dated 2023):

Tested on: S. aureus
Assay: Cocultivation with S. aureus in culture
Details: P. aeruginosa cocultivation

For pyoverdine, the “mediation of S. aureus growth inhibition” value was “not mediated”.
